Experimental findings from patent US20230357367A1 (GENERATE BIOMEDICINES, published 2023) are described below.

Assay [1] has as its target SARS-CoV-2 BA.1 spike trimer (recombinant, ACRO) (SARS-CoV-2). Nature of the assay: DELFIA, IgG titrated on coated spike trimer.
Assay [2] addresses SARS-CoV-2 BA.2.12.1 spike trimer (recombinant) (SARS-CoV-2). Nature of the assay: DELFIA, IgG titrated on coated spike trimer.
The target of assay [3] is SARS-CoV-2 BA.4.6 spike trimer (recombinant) (SARS-CoV-2). Description: DELFIA, IgG titrated on coated spike trimer.
In assay [4] the target is SARS-CoV-2 BQ.1 spike trimer (recombinant) (SARS-CoV-2). Description: DELFIA, IgG titrated on coated spike trimer.
Assay [5] has as its target T1, SARS-CoV-2 BQ.1.1 spike trimer (recombinant) (SARS-CoV-2). Nature of the assay: DELFIA, IgG titrated on coated spike trimer.
Assay [6] has as its target T2, SARS-CoV-2 XBB.1.5 spike trimer (recombinant) (SARS-CoV-2). Nature of the assay: DELFIA, IgG titrated on coated spike trimer.
Assay [7] addresses T3, SARS-CoV-2 BA.2 (parent) spike trimer (recombinant, in-house production) (SARS-CoV-2). Description: DELFIA, IgG titrated on coated spike trimer.
The target in assay [8] is T4, SARS-CoV-2 BA.4 spike trimer (recombinant) (SARS-CoV-2). Nature of the assay: SPR, Fab over anti-His-captured trimer, 25 C.
Assay [9] addresses T1, SARS-CoV-2 BQ.1.1 spike trimer …. Description: SPR, Fab over anti-His-captured trimer, 25 C.
Assay [10] addresses T2, SARS-CoV-2 XBB.1.5 spike trimer …. Nature of the assay: SPR, Fab over anti-His-captured trimer, 25 C.
Assay [11] deals with T3, SARS-CoV-2 BA.2 (parent) spike trimer …. Description: SPR, Fab over anti-His-captured trimer, 25 C.
Assay [12] has as its target T5, SARS-CoV-2 BA.5 spike trimer (recombinant) (SARS-CoV-2). Nature of the assay: SPR, Fab over anti-His-captured trimer, 25 C.
Assay [13] addresses T4, SARS-CoV-2 BA.4 spike trimer …. Nature of the assay: SPR, Fab over anti-His-captured trimer, 37 C.
The target in assay [14] is T1, SARS-CoV-2 BQ.1.1 spike trimer …. Nature of the assay: SPR, Fab over anti-His-captured trimer, 37 C.
Assay [15] addresses T2, SARS-CoV-2 XBB.1.5 spike trimer …. Nature of the assay: SPR, Fab over anti-His-captured trimer, 37 C.
For assay [16], the target named is T3, SARS-CoV-2 BA.2 (parent) spike trimer …. Nature of the assay: SPR, Fab over anti-His-captured trimer, 37 C.
In assay [17] the target is T5, SARS-CoV-2 BA.5 spike trimer …. Nature of the assay: SPR, Fab over anti-His-captured trimer, 37 C.

B1: Reference Antibody (antibody, V domains shown)
VH: EVQLVESGAEVKKPGESLKISCKGSGYTFTRYWIGWVRQMPGKGLEWMGIIYPGDSDTRYSPSFQGHVTISADKSISTAYLQWNSLKASDTAMYYCARLPQYCSNGVCQRWFDPWGQGTLVTVSS
VL: EIVLTQSPSSVSASVGDRVTITCRASQGISSWLAWYQQKPGKAPKLLIYAASSLQSGVPSRFSGSGSGTDFTLTISSLQPEDFATYYCQQGNSFPYTFGQGTNLEIK
Turning to B1, the EC50 in assay [1] came to 0.068 µg/mL; in [2], 0.072 µg/mL; in assay [3], 0.072 µg/mL; in [4] it was 0.068 µg/mL; in assay [5], 0.066 µg/mL; in assay [6], 0.072 µg/mL. Moreover, in assay [7], the concentration giving a half-maximal response (EC50) was found to be 0.062 µg/mL.

B2: Reference Antibody Fab (Fab, V domains shown)
VH: B1 VH
VL: B1 VL
On to B2, for which the Kd in assay [8] turned out to be 19 nM; in assay [9] it was 22 nM; in assay [10] it was 18.8 nM; in assay [11], 85.8 nM; in assay [12], 15.6 nM; in assay [13] it was 37.4 nM. For the same molecule, the dissociation constant Kd in assay [14] came out at 43.7 nM; in assay [15], 39.8 nM; in assay [16] it was 146 nM; in assay [17], 45.9 nM.
